Pooled drug test results. Numbers come from NIAID ChemDB, via PubChem.

Common to all: tests in culture; species: Hepatitis C virus; read-out: EC50

ECn is the concentration giving n% inhibition of infection, replication or growth.

SMILES,cells,strain or isolate,changes,method,result
COc1cc(Cn2c(C(=O)OCOC(=O)C(C)(C)C)c(-c3cccn(COC(=O)C(C)(C)C)c3=O)c3c4occc4c(F)cc32)c(F)cn1,-,-,-,replicon,<0.5 µM
Cc1ccoc1C(=O)Nc1ccc(-c2cc(N(C(=O)C3CCC(C)CC3)C(C)C)c(C(=O)O)s2)cc1,-,1b,-,replicon,<0.5 µM
O=C(O)c1c(-c2ccc[nH]c2=O)c2c3occc3c(F)cc2n1Cc1nc(C2CC2)ccc1F,-,-,-,replicon,<0.5 µM
O=C(Cc1c(Cl)ccc(Cl)c1Cl)N/N=C/c1ccccc1OS(=O)(=O)c1ccc(C(F)(F)F)cc1,Huh7,-,-,replicon,>50 µM
CNC(=O)c1c(-c2ccc(F)cc2)oc2cc(N(CC(C)=O)S(C)(=O)=O)c(OC(C)C)cc12,Huh7,-,-,replicon,<1 µM
NS(=O)(=O)c1ccc(CNc2nc(OC3CC3)c3nc(-c4ccc(F)cc4)ccc3n2)cc1,-,-,-,replicon,<0.1 µM
COC(=O)N[C@H](C(=O)N1CCC[C@H]1c1ncc(-c2ccc(-c3ccc(-c4cnc([C@@H]5CCCN5C(=O)[C@@H](NC(=O)OC)C(C)C)[nH]4)cc3)cc2)[nH]1)C(C)C,ET,1b,L31F,luciferase,0.000022 µM
N#Cc1ccccc1OCCCCCOc1cccc(NC(N)=S)c1,Ava5-EG(delta4AB)SEAP,-,-,reporter gene / fluorescence,0.001–1 µM
CCCCCOc1ccc(N(C(=O)C(=O)OC)c2nc(-c3ccc(F)cc3)cs2)cc1F,-,-,-,-,<1 µM
COc1cccc(CC(=O)N/N=C/c2ccccc2OS(=O)(=O)c2ccc(-c3cc(C(F)(F)F)on3)s2)c1,Huh7,-,-,replicon,<5 µM
CCN(C(=O)C1CCC(C)CC1)c1cc(-c2ccc(NC(=O)c3ccn[nH]3)cc2)sc1C(=O)O,-,1a,-,replicon,<0.5 µM
CS(=O)(=O)NC(=O)c1ccc2c(C3CCCCC3)c3n(c2c1)CCCc1ncccc1-3,Huh7,-,-,replicon,1–10 µM
CNC(=O)c1c(-c2ccc(F)cc2)oc2cc(NC(C)(C)C)c(OC(C)C)cc12,Huh7,-,-,replicon,<10 µM
CC1(C)CC(=O)C2=C(C1)Nc1c(O)cccc1NC2c1c(Cl)nc2sccn12,-,1b,-,luciferase / reporter gene / replicon,>10 µM
O=C(Cc1cccc(F)c1)N/N=C/c1ccccc1OS(=O)(=O)c1ccc(C(F)(F)F)cc1,Huh7,-,-,replicon,<5 µM
CS(=O)(=O)NC(=O)c1c(-c2ccc[nH]c2=O)c2c3c(c(F)cc2n1Cc1csc(C(N)=O)c1)CCO3,-,-,-,replicon,<0.5 µM
CS(=O)(=O)CCNc1nc(NCc2ccc(S(N)(=O)=O)cc2)nc2ccc(-c3ccc(F)cc3)nc12,-,-,-,replicon,<0.1 µM
CNC(=O)c1c(-c2ccc(F)cc2)oc2cc(N(Cc3nsc(Cl)n3)S(C)(=O)=O)c(OC(C)C)cc12,Huh7,-,-,replicon,<10 µM
CCOc1nc(NCc2ccc(S(N)(=O)=O)cc2)nc2ccc(-c3ccc(NC(=O)C4CCNC4)c(F)c3)nc12,-,-,-,replicon,<0.1 µM
CC(C)Oc1cc2c(C(=O)NC3CC3)c(-c3ccc(F)cc3)oc2cc1NS(C)(=O)=O,Huh7,-,-,replicon,<1 µM
CCCCCOc1ccc(N(C(=O)C(=O)OC)c2nc(-c3cccnc3)cs2)cc1F,-,-,-,-,<1 µM
NC(=S)Nc1cccc(NCCCCCc2ccccc2)c1,Ava5-EG(delta4AB)SEAP,-,-,reporter gene / fluorescence,0.001–1 µM
O=C(Cc1ccc(Cl)cc1)N/N=C/c1ccccc1OS(=O)(=O)c1ccc(C(F)(F)F)cc1,Huh7,-,-,replicon,<5 µM
CC(C)N1CCC(NC(=O)c2ccc(-c3ccc4nc(N)nc(O[C@H]5CCOC5)c4n3)cc2)CC1,Huh7,-,-,replicon,>1 µM
CC1CCC(C(=O)N(c2cc(-c3ccc(NC(=O)c4ccsc4)cc3)sc2C(=O)O)C(C)C)CC1,-,1b,-,replicon,<0.5 µM
CNC(=O)c1c(-c2ccc(F)cc2)oc2cc(-c3cnco3)c(OC(C)C)cc12,Huh7,-,-,replicon,<10 µM
CC1CCC(C(=O)N(CC2CC2)c2cc(-c3ccc(NC(=O)c4cccnn4)cc3)sc2C(=O)O)CC1,-,1a,-,replicon,<0.5 µM
CCN(c1cc2oc(-c3ccc(F)cc3)c(C(=O)NC)c2cc1OCc1cccc2c1C(=O)OC(C)(C)O2)S(C)(=O)=O,Huh7,-,-,replicon,<1 µM
CC1(C)CC(=O)C2=C(C1)Nc1c(O)cccc1N(C(=O)CC#N)C2c1ccc(Oc2ccccc2Br)cc1Cl,-,1b,-,luciferase / reporter gene / replicon,13.54 µM
COc1ccc(-c2ccccc2OCCCCCOc2cccc(NC(N)=S)c2)cc1,Ava5-EG(delta4AB)SEAP,-,-,reporter gene / fluorescence,0.001–1 µM
CCOc1nc(NCc2ccc(F)cc2)nc2ccc(-c3ccc(NC(=O)N4CCCC4)cc3)nc12,-,-,-,replicon,<0.1 µM
COC(=O)C1=Cc2cc(OCc3ccccc3)ccc2-c2c(C3CCCCC3)c3ccc(C(=O)NS(=O)(=O)N(C)C)cc3n2C1,Huh7,-,-,replicon,0.01–1 µM
Cc1cccc(Cn2c(C(=O)NS(C)(=O)=O)c(-c3ccc[nH]c3=O)c3c4occc4ccc32)c1F,-,-,-,replicon,<0.5 µM
CN(C)C(=O)C1=Cc2ccccc2-c2c(C3CCCCC3)c3ccc(C(=O)O)cc3n2C1,Huh7,-,-,replicon,1–10 µM
CCCCCCCCOc1ccc(N(C(N)=O)c2nc(-c3cccnc3)cs2)cc1,-,-,-,-,<1 µM
CN(C)S(=O)(=O)NC(=O)c1ccc2c(C3CCCCC3)c3n(c2c1)CCNc1ccccc1-3,Huh7,-,-,replicon,0.01–1 µM
Fc1ccc(-c2ccc3nc(NCc4ccc(-c5csnn5)cc4)nc(NCC(F)(F)F)c3n2)cc1,-,-,-,replicon,<0.1 µM
COc1cccc(CC(=O)N/N=C/c2ccccc2OS(=O)(=O)c2ccc(Oc3cccnc3)cc2)c1,Huh7,-,-,replicon,5–50 µM
CC(C)(C)C(=O)OCOC(=O)c1c(-c2cccn(COC(=O)C(C)(C)C)c2=O)c2c3occc3c(F)cc2n1Cc1cc(=O)n(COC(=O)C(C)(C)C)cc1F,-,-,-,replicon,<0.5 µM
COc1cccc(CC(=O)N/N=C/c2cccc(Cl)c2OS(=O)(=O)c2ccc(C)cc2)c1,Huh7,-,-,replicon,<5 µM
CN(C)S(=O)(=O)NC(=O)c1ccc2c(C3CCCCC3)c3n(c2c1)CCCc1ncccc1-3,Huh7,-,-,replicon,0.01–1 µM
NC(=S)Nc1cccc(OCCCCCOc2ccc(C(=O)Oc3ccccc3)cc2)c1,Ava5-EG(delta4AB)SEAP,-,-,reporter gene / fluorescence,0.001–1 µM
O=C(O)c1c(-c2ccc[nH]c2=O)c2c3occc3c(F)cc2n1Cc1cc(=O)[nH]c2ccccc12,-,-,-,replicon,<0.5 µM
NS(=O)(=O)c1ccc(CNc2nc(NCC(F)(F)F)c3nc(-c4ccc(Cl)c(S(=O)(=O)NC5CCNCC5)c4)ccc3n2)cc1,-,-,-,replicon,<0.1 µM
CC1(C)CC(=O)C2=C(C1)Nc1c(O)cccc1N(C(=O)c1cccc(Cl)n1)[C@H]2c1ccc(OCc2ccccc2)cc1F,-,1b,-,luciferase / reporter gene / replicon,0.2 µM
COc1ccc(OC)c(S(=O)(=O)Oc2ccccc2/C=N/NC(=O)Cc2ccccc2)c1,Huh7,-,-,replicon,>50 µM
NC(=S)Nc1cccc(OCCCCCNc2ccccc2C2CCCCC2)c1,Ava5-EG(delta4AB)SEAP,-,-,reporter gene / fluorescence,0.001–1 µM
CCOc1nc(NCc2ccc(S(N)(=O)=O)cc2)nc2ccc(-c3ccc(NC(=O)C(N)[C@@H](C)O)cc3)nc12,-,-,-,replicon,<0.1 µM
CC(=O)c1ccc(C2Nc3cccc(O)c3NC3=C2C(=O)CC(C)(C)C3)cc1,-,1b,-,luciferase / reporter gene / replicon,>100 µM
O=C(NC1(C(=O)Nc2nccs2)CCCC1)c1ccc2c(C3CCCCC3)c3n(c2c1)CC=Cc1ccccc1-3,Huh7,-,-,replicon,0.01–1 µM
CNC(=O)c1c(-c2ccc(F)cc2)oc2cc(N3CCC(S(C)(=O)=O)C3)c(OC(C)C)cc12,Huh7,-,-,replicon,<1 µM
O=C(Cc1ccc2ccccc2c1)N/N=C/c1ccccc1OS(=O)(=O)c1ccc(C(F)(F)F)cc1,Huh7,-,-,replicon,<5 µM
O=C(c1ccc2c(C3CCCCC3)c3n(c2c1)CC(C(=O)N1CCOCC1)Cc1ccccc1-3)N1CCOCC1,Huh7,-,-,replicon,0.01–1 µM
COc1cccc(CC(=O)N/N=C/c2cc(OC)ccc2OS(=O)(=O)c2ccc(C)cc2)c1,Huh7,-,-,replicon,<5 µM
Cc1cc(C(=O)Nc2ccc(-c3cc(N(C(=O)C4CCC(C)CC4)C(C)C)c(C(=O)O)s3)cc2)ccn1,-,1b,-,replicon,<0.5 µM
CCCCCCCCOc1ccc(N(C(=O)c2cc(C)on2)c2nc(-c3ccc(Cl)s3)cs2)cc1,-,-,-,-,<1 µM
O=C(O)c1c(-c2ccc[nH]c2=O)c2c3occc3ccc2n1Cc1cc2ccccc2nc1Cl,-,-,-,replicon,<0.5 µM
CC1(C)CC(=O)C2=C(C1)Nc1c(O)cccc1N[C@@H]2c1ccc(OCc2ccccc2)cc1F,-,1b,-,luciferase / reporter gene / replicon,1.09 µM
CC(C)(CN1CCCC1)NC(=O)c1ccc(-c2ccc3nc(NCc4ccc(S(N)(=O)=O)cc4)nc(NCC(F)(F)F)c3n2)cc1,-,-,-,replicon,<0.1 µM
O=C(O)c1ccc2c(C3CCCCC3)c3n(c2c1)C/C(=N/O)Cc1ccccc1-3,Huh7,-,-,replicon,1–10 µM

6 of the rows above, restated:

SMILES	cells	strain or isolate	changes	method	result
CC(C)Oc1cc2c(C(=O)NC3CC3)c(-c3ccc(F)cc3)oc2cc1NS(C)(=O)=O	Huh7	-	-	replicon	<1 µM
COc1cccc(CC(=O)N/N=C/c2ccccc2OS(=O)(=O)c2ccc(-c3cc(C(F)(F)F)on3)s2)c1	Huh7	-	-	replicon	<5 µM
CC1CCC(C(=O)N(CC2CC2)c2cc(-c3ccc(NC(=O)c4cccnn4)cc3)sc2C(=O)O)CC1	-	1a	-	replicon	<0.5 µM
O=C(O)c1ccc2c(C3CCCCC3)c3n(c2c1)C/C(=N/O)Cc1ccccc1-3	Huh7	-	-	replicon	1–10 µM
CN(C)C(=O)C1=Cc2ccccc2-c2c(C3CCCCC3)c3ccc(C(=O)O)cc3n2C1	Huh7	-	-	replicon	1–10 µM
NC(=S)Nc1cccc(NCCCCCc2ccccc2)c1	Ava5-EG(delta4AB)SEAP	-	-	reporter gene / fluorescence	0.001–1 µM

Two numbers with a dash give a range or band. Blank or dashed fields: not listed here. Neighbouring rows are from separate reports.